Tested on: SARS-CoV-2
Assay type: cell-based
Settings: Vero E6 cells; 48 hpi; hydroxychloroquine and EIDD-2801 10 μM

B1: IFN-β: interferon (IFN)-β (protein, UniProt P01574 22-187, looked up)
Interferon beta: MSYNLLGFLQRSSNFQCQKLLWQLNGRLEYCLKDRMNFDIPEEIKQLQQFQKEDAALTIYEMLQNIFAIFRQDSSSTGWNETIVENLLANVYHQINHLKTVLEEKLEKEDFTRGKLMSSLHLKRYYGRILHYLKAKEYSHCAWTIVRVEILRNFYFINRLTGYLRN
blocking of SARS-CoV-2 infection (IFA): effectively blocked

— paper PMC7969873 (Cell Reports, 2021)
